Results on one molecule are retold here after patent publication US20070249501A1 (priority 2004, published 2007).

The test system of experiment [1] is Fusarium oxysporum f. sp. radicis-lycopersici (FORL). The note with it: 30 mg/Kg (ppm, w/w); 7 days; preliminary studies.
Experiment [2] deals with Sclerotium rolfsii. The experiment can be described thus: Viability of Sclerotium sclerotia in treated soil (BromoCresol Green method). The note with it: 30 mg/Kg (ppm, w/w); 7 days; preliminary studies. The format is cell-based.

In the case of `O=[N+]([O-])C(Br)Br`, the “control of FORL in soil (percent survival, FIG. 6)” value in experiment [1] is given as “effective in controlling soil-borne fungi”. For the same molecule, in experiment [2], the “control of S. rolfosii in soil (percent survival, FIG. 6)” value is given as “effective in controlling soil-borne fungi”.
